Pooled drug test results. Numbers come from NIAID ChemDB, via PubChem.

Shared fields: tests in culture; species: HIV-1; cell line: MT-4; endpoint: EC50

Rows are shuffled and stem from different studies.

SMILES | strain | mutations | method | value
CC(=O)c1ccc(Nc2ncccc2C(=O)c2cc(C)cc(C)c2)cc1 | IIIB |  | MTT | >34.78 µM
Cc1cc(C#N)cc(C)c1Oc1nc(N/N=C/C2CCN(Cc3ccc(S(C)(=O)=O)cc3)CC2)nc2ccsc12 | IIIB |  | MTT | >4.62 µM
CNC(C)[C@H]1O[C@H](O[C@@H]2[C@@H](O)[C@H](O[C@@H]3OC[C@@](C)(O)[C@@H](NC)[C@@H]3O)[C@@H](NC(=O)[C@@H](N)CCCN=C(N)N)C[C@H]2NC(=O)[C@@H](N)CCCN=C(N)N)[C@H](NC(=O)[C@@H](N)CCCN=C(N)N)[C@@H](O)[C@@H]1O | NL4-3 | AMD3100-resistant | cytopathic effect / MTT | 60 µM
CC(Sc1nc2ncccc2n1-c1ccc(C2CC2)c2ccccc12)C(=O)Nc1ccc(S(N)(=O)=O)cc1Br | RES056 |  | MTT | >3.07 µM
Cc1cc(C)cc(C(=O)c2cccnc2Nc2cccnc2)c1 | IIIB |  | MTT | >41.63 µM
c1ccc(CNCc2ccc(CN3CCCNCCNCCCNCC3)cc2)nc1 | NL4-3 | AMD3100-resistant | cytopathic effect / MTS | 2.822 µM
Cc1cn([C@H]2C=C[C@@H](COP(=O)(O)O)O2)c(=O)[nH]c1=O |  |  |  | 0.71 µM
NC(=O)c1ccc(NC(=O)CSc2nc3ncccc3n2-c2ccc(C3CC3)c3ccccc23)c(Cl)c1 | IIIB |  | MTT | 0.12 µM
C1CNCCNCCCN(CCCN2CCCNCCNCCCNCC2)CCNC1 | HE |  | cytopathic effect / MTS | 0.495 µM
Cc1cc(C)cc(C(=O)c2cccnc2Oc2ccccc2)c1 | RES056 |  | MTT | >20.7 µM
C#CC1(CO)O[C@@H](n2c(Cl)nc3c(=O)[nH]c(N)nc32)[C@H](O)[C@@H]1O | LAI |  | cytopathic effect / MTT | >400 µM
CCc1cc(NCc2nc3c(C)ccc(C)c3o2)c(=O)[nH]c1C | A17 |  | p24 | <25 µM
C#C[C@]1(CO)O[C@@H](n2cc(CC)c(=O)[nH]c2=O)C[C@@H]1O | LAI |  | cytopathic effect / MTT | >400 µM
CC(C)(C)NC(=O)[C@@H]1C[C@@H]2CCCC[C@@H]2CN1C[C@@H](O)[C@H](Cc1ccccc1)NC(=O)[C@H](CC(N)=O)NC(=O)c1ccc2ccccc2n1 | NL4-3 | PR-L10R M46I L63P 184V | p24 | <0.1 µM
CCc1cc(NCc2nc3ccccc3o2)c(=O)[nH]c1C | rHXB2 |  | p24 | <0.2 µM
Cc1cc(C#N)cc(C)c1Oc1nc(N/N=C/C2CCN(Cc3cccc(C(N)=O)c3)CC2)nc2ccsc12 | IIIB |  | MTT | >4.68 µM
Cc1cc(C)cc(C(=Nc2ccc(C(N)=O)cc2)c2cccnc2Cl)c1 | RES056 |  | MTT | >34.03 µM
NS(=O)(=O)c1ccc(NC(=O)CSc2nc3ncccc3n2-c2ccc(C3CC3)c3ccccc23)c(Br)c1 | IIIB |  | MTT | 0.059 µM
Cc1cn([C@H]2C[C@H](N=[N+]=[N-])[C@@H](CO)O2)c(=O)[nH]c1=O |  |  |  | 0.7 µM
C#CC1(CO)O[C@@H](n2cc(/C=C/Br)c(=O)[nH]c2=O)C[C@@H]1O | LAI |  | cytopathic effect / MTT | >15 µM
Cc1cc(C#N)cc(C)c1Oc1nc(Nc2ccc(C#N)cc2)nc(N)c1Br | RES056 |  | MTT | 0.016 µM
COC(=O)c1ccc(NC(=O)CSc2nc3ncccc3n2-c2ccc(C3CC3)c3ccccc23)c([N+](=O)[O-])c1 | IIIB |  | MTT | 0.27 µM
C=C[C@]1(CO)O[C@@H](n2cc(C)c(=O)[nH]c2=O)C[C@@H]1O | LAI |  | cytopathic effect / MTT | 3.9 µM
Cc1cn([C@H]2C=C[C@@H](COP(=O)(OCc3ccccc3)OCc3ccccc3)O2)c(=O)[nH]c1=O |  |  |  | >100 µM
CONC(=O)c1ccc(NC(=O)CSc2nc3ncccc3n2-c2ccc(C3CC3)c3ccccc23)c(Cl)c1 | RES056 |  | MTT | >1.05 µM
Cc1cc(C)cc(C(=O)c2cccnc2Oc2ccc(N)cc2)c1 | RES056 |  | MTT | >123 µM
Cc1cc(C#N)cc(C)c1Oc1nc(N/N=C/c2ccc(C#N)cc2)nc2ccsc12 | RES056 | K103N/Y181C | MTT | >58.9 µM
Nc1ccn([C@H]2CC[C@@H](CO)O2)c(=O)n1 | HXB2D |  | p24 | 0.45 µM
O=c1[nH]cnc2c1ncn2[C@H]1CC[C@@H](CO)O1 | AZT-resistant (RT M41L T215Y) | RT-M41L T215Y | cytopathic effect | 0.25 µM
CC(C)CN(C[C@@H](O)[C@H](Cc1ccccc1)NC(=O)[C@H](CC(N)=O)NC(=O)c1ccc2ccccc2n1)C(=O)NC(C)(C)C | NL4-3 | PR-L10R M46I L63P 184V | p24 | <1.5 µM
Cc1cn([C@H]2C[C@H](N=[N+]=[N-])[C@@H](CO)O2)c(=O)[nH]c1=O | RES056 | K103N/Y181C | MTT | 0.017 µM
Cc1cn([C@H]2C=C[C@@H](CO)O2)c(=O)[nH]c1=O |  |  | cytopathic effect | 0.33 µM
Cc1cc(C#N)cc(C)c1Oc1nc(N/N=C/C2CCN(Cc3ccncc3)CC2)nc2ccsc12 | IIIB |  | MTT | >5.52 µM
NC(N)=NCCC[C@H](N)C(=O)NC[C@@H]1OC(O[C@H]2[C@@H](O)[C@H](O[C@@H]3[C@@H](O)[C@H](NC(=O)[C@@H](N)CCCN=C(N)N)C[C@H](NC(=O)[C@@H](N)CCCN=C(N)N)[C@H]3O[C@H]3O[C@H](CNC(=O)[C@@H](N)CCCN=C(N)N)[C@@H](O)[C@H](O)[C@H]3NC(=O)[C@@H](N)CCCN=C(N)N)O[C@@H]2CO)[C@H](NC(=O)[C@@H](N)CCCN=C(N)N)[C@@H](O)[C@@H]1O | RF |  | cytopathic effect / MTT | 1.4 µM
C#C[C@]1(CO)O[C@@H](n2cc(I)c(=O)[nH]c2=O)C[C@@H]1O | LAI |  | cytopathic effect / MTT | 0.29 µM
Cc1cn([C@H]2C[C@H](N=[N+]=[N-])[C@@H](CO)O2)c(=O)[nH]c1=O | A17 |  | p24 | <0.025 µM
CC(Sc1nc2ncccc2n1-c1ccc(C2CC2)c2ccccc12)C(=O)Nc1ccc(C(N)=O)cc1Br | IIIB |  | MTT | 0.2 µM

Again, the opening 5 rows:

CC(=O)c1ccc(Nc2ncccc2C(=O)c2cc(C)cc(C)c2)cc1 ; strain: IIIB ; method: MTT ; value: >34.78 µM
Cc1cc(C#N)cc(C)c1Oc1nc(N/N=C/C2CCN(Cc3ccc(S(C)(=O)=O)cc3)CC2)nc2ccsc12 ; strain: IIIB ; method: MTT ; value: >4.62 µM
CNC(C)[C@H]1O[C@H](O[C@@H]2[C@@H](O)[C@H](O[C@@H]3OC[C@@](C)(O)[C@@H](NC)[C@@H]3O)[C@@H](NC(=O)[C@@H](N)CCCN=C(N)N)C[C@H]2NC(=O)[C@@H](N)CCCN=C(N)N)[C@H](NC(=O)[C@@H](N)CCCN=C(N)N)[C@@H](O)[C@@H]1O ; strain: NL4-3 ; mutations: AMD3100-resistant ; method: cytopathic effect / MTT ; value: 60 µM
CC(Sc1nc2ncccc2n1-c1ccc(C2CC2)c2ccccc12)C(=O)Nc1ccc(S(N)(=O)=O)cc1Br ; strain: RES056 ; method: MTT ; value: >3.07 µM
Cc1cc(C)cc(C(=O)c2cccnc2Nc2cccnc2)c1 ; strain: IIIB ; method: MTT ; value: >41.63 µM

ECn is the concentration giving n% inhibition of infection, replication or growth. Blank or dashed fields: not listed here.